Pooled drug test results. Numbers come from NIAID ChemDB, via PubChem.

All rows: host cell toxicity; cells: KB; read-out: CC50

An empty or dashed field is not shown.

structure | method | value
C/C=C/c1ccc2c(c1)[C@H](C)[C@@H](c1ccc(O)cc1)O2 | sulforhodamine / absorbance | 43 µM
COc1cc(C(=O)Oc2c(-c3ccc(Cl)c(Cl)c3)oc3ccccc3c2=O)ccc1OC(C)=O |  | >100 µM
COC1c2c(ccc3c2OCO3)-c2ccc3cc4c(cc3c2N1C)OCO4 | sulforhodamine | >3.63 µg/mL
OC[C@H]1O[C@@H](n2cnc3cc4cc(Cl)c(Cl)cc4nc32)[C@H](O)[C@@H]1O |  | >100 µM
OCCc1ccc(O)c(O[C@@H]2O[C@H](CO)[C@@H](O)[C@H](O)[C@H]2O)c1 | MTT | 5.66 µM
COc1cc(/C=C/C(=O)Oc2c(-c3ccc(Cl)cc3)oc3ccccc3c2=O)ccc1O |  | 4.4 µM
CC(C)Nc1nc2nc3cc(Cl)c(Cl)cc3nc2n1C1OC(CO)C(O)C1O |  | 70 µM
COc1cc(CCOC(=O)CCC(=O)CO)cc(O)c1OC | MTT | 2.82 µM
CC1(C)[C@@H](Br)CC[C@]2(C)O[C@H]3COC(=O)C3=C[C@@H](O)[C@@H]12 |  | 7.2 µg/mL
OCCc1ccc(O)c(O)c1 | MTT | 15.05 µM
COc1c2c(cc3c1-c1cc4c(CO)c5c(cc4c[n+]1CC3)OCO5)OCO2 | sulforhodamine | >3.79 µg/mL
O=C(Oc1c(-c2ccc(Cl)c(Cl)c2)oc2ccccc2c1=O)c1cc(O)c(O)c(O)c1 |  | 4.5 µM
CCC[C@@H](OC(C)=O)C1=C(Br)/C(=C/Br)OC1=O |  | 0.5 µg/mL
O=c1[nH]c(=O)n([C@H]2C[C@H](O)[C@@H](CO)O2)c[c]1[Hg+].O[C@H](C[S-])[C@H](O)CS | trypan blue | 48.8 µg/mL
C[C@@H]1O[C@@H](O[C@@H]2[C@@H](O)[C@H](OCCc3ccc(O)c(O)c3)O[C@H](COC(=O)/C=C/c3ccc(O)c(O)c3)[C@H]2O)[C@H](O)[C@H](O)[C@H]1O | MTT | 5.03 µM
OC[C@H]1O[C@@H](n2c(NC3CC3)nc3cc4cc(Cl)c(Cl)cc4cc32)[C@H](O)[C@@H]1O |  | 55 µM
COc1cc(O)cc2oc3cc(O)c(O)cc3c(=O)c12 | sulforhodamine / absorbance | >50 µM
OC[C@H]1O[C@@H](n2c(Cl)nc(Cl)c2Cl)[C@H](O)[C@H]1O |  | >100 µM
O=c1[nH]c(=O)n([C@H]2C[C@H](O)[C@@H](CO)O2)c[c]1[Hg+].O=c1cc[nH]c(=S)[nH]1 | trypan blue | >115 µg/mL
CC(C)CNC(=O)[C@@H](N)Cc1ccc(O[P@@]2(=O)CO[C@@H](Cn3cnc4c(N)ncnc43)CO2)cc1 | absorbance | >100 µM
C=C1C[C@H]2OC2[C@]2(CC[C@@H]3C([C@@H](OC(C)=O)[C@H](C=C(C)C)OC(C)=O)=CC[C@H](OC(C)=O)[C@@H]13)CO2 |  | >20 µg/mL
NC(CS)C(=O)O.O=c1[nH]c(=O)n([C@H]2C[C@H](O)[C@@H](CO)O2)c[c]1[Hg+] | trypan blue | >114 µg/mL
CC(C)=CCC[C@@H](C)[C@@H]1CC[C@]2(C)C3=C(CC[C@@]12C)[C@@]1(C)CC[C@H](O)C(C)(C)[C@@H]1CC3 | sulforhodamine / absorbance | >50 µM
CC(C)Nc1nc2nc3cc(Cl)c(Cl)cc3cc2n1[C@@H]1O[C@H](CO)[C@@H](O)[C@H]1O |  | 90 µM
O=c1c2cc(O)c(O)cc2oc2cc(O)cc(O)c12 | sulforhodamine / absorbance | 6.26 µM
CN1Cc2c(ccc3c2OCO3)-c2ccc3cc4c(cc3c21)OCO4 | sulforhodamine | >3.33 µg/mL
CC(C)C12C=C3CC[C@H]4[C@](C)(C(=O)O)CCC[C@]4(C)[C@]3(CC1)OO2 | absorbance | 33.17 µg/mL
O=C1c2c(O)cc(O)cc2O[C@H](c2ccc(O)cc2)[C@H]1c1c(O)cc(O)c2c(=O)cc(-c3ccc(O)c(O)c3)oc12 | sulforhodamine / absorbance | >50 µM
OCC1OC(n2c(NC3CC3)nc3nc4cc(Cl)c(Cl)cc4nc32)C(O)C1O |  | 90 µM
CC(=O)Oc1c(-c2ccc(Cl)cc2)oc2ccccc2c1=O |  | 6.5 µM
[C-]#[N+][C@@]1(C)CC[C@H]2[C@H]3C(=C(C)CC[C@@H]31)[C@H](C=C(C)C)C[C@@H]2C |  | 15.2 µg/mL
O=c1c(O)c(-c2ccc(O)c(O)c2)oc2cc(O)cc(O)c12 |  | 25 µM
CC(=O)OC(C1C=C(C)C(=O)O1)C(C)C1C2C3(O)OC4(CCC12C)C(=CCC1C(C)(C)OC2CC(=O)OC21C4O)C3=O | MTT | 1.87 µg/mL
OC[C@H]1O[C@@H](n2c(NC3CC3)nc3nc4cc(Cl)c(Cl)cc4cc32)[C@H](O)[C@@H]1O |  | >100 µM
C=C[C@](C)(Cl)[C@@H](Br)/C=C/[C@](C)(Cl)CBr |  | >20 µg/mL
CC(C)=CC[C@H]1C[C@]2(C[C@H]3CCC(C)(C)C=C3C)C(=O)C3=C(OC(C)(C)CC3)[C@@](C(=O)c3ccccc3)(C2=O)C1(C)C | sulforhodamine / absorbance | >50 µM

5 of the rows above, restated:

| structure | method | value |
|---|---|---|
| CC(=O)OC(C1C=C(C)C(=O)O1)C(C)C1C2C3(O)OC4(CCC12C)C(=CCC1C(C)(C)OC2CC(=O)OC21C4O)C3=O | MTT | 1.87 µg/mL |
| OC[C@H]1O[C@@H](n2c(NC3CC3)nc3nc4cc(Cl)c(Cl)cc4cc32)[C@H](O)[C@@H]1O |  | >100 µM |
| COC1c2c(ccc3c2OCO3)-c2ccc3cc4c(cc3c2N1C)OCO4 | sulforhodamine | >3.63 µg/mL |
| O=c1[nH]c(=O)n([C@H]2C[C@H](O)[C@@H](CO)O2)c[c]1[Hg+].O[C@H](C[S-])[C@H](O)CS | trypan blue | 48.8 µg/mL |
| CC(C)=CC[C@H]1C[C@]2(C[C@H]3CCC(C)(C)C=C3C)C(=O)C3=C(OC(C)(C)CC3)[C@@](C(=O)c3ccccc3)(C2=O)C1(C)C | sulforhodamine / absorbance | >50 µM |

CCn is the concentration with n% toxicity to the cells. Lines come from different laboratories, so protocols vary.